What was measured:
[1] = biological target: T1, PrP^Sc in ScN2a cells (Mus musculus, UniProt P04925); assay: PrP^Sc inhibition in permanently scrapie-infected neuroblastoma cells (ScN2a), one week treatment, immunoblot; conditions: range tested
[2] = biological target: T1, PrP^Sc in ScN2a cells; assay: Dose-dependent reduction of PrP^Sc in ScN2a cells by compound 11, seven days, immunoblot
[3] = biological target: T1, PrP^Sc in ScN2a cells; assay: PrP^Sc inhibition screening assay in ScN2a cells (three days, immunoblot densitometry); conditions: for % PrP^Sc (±SEM) 50 nM / % PrP^Sc (±SEM) 200 nM / % PrP^Sc (±SEM) 400 nM: three days, ScN2a, PK-resistant PrP remaining versus untreated control
[4] = biological target: T1, PrP^Sc in ScN2a cells; assay: Accumulation of proteinase K resistant PrP^Sc in ScN2a cells treated with optical isomers of quinacrine; conditions: 0-0.4 micromolar, six days

Molecule	anti-PrP^Sc effect, in words [1]	% PrP^Sc (±SEM) 50 nM [3]	% PrP^Sc (±SEM) 200 nM [3]	% PrP^Sc (±SEM) 400 nM [3]	also measured
O=C(CCCN1CCC(O)(c2ccc(Cl)cc2)CC1)c1ccc(F)cc1	did not inhibit PrP^Sc formation or accumulation	–	–	–	–
COc1ccc2nc3cc(Cl)ccc3c(NCCCN3CCN(CCCNc4c5ccc(Cl)cc5nc5ccc(OC)cc45)CC3)c2c1 [Compound 11, (6-chloro-2-methoxy-acridin-9-yl)-(3-{4-[3-(6-chloro-2-methoxy-acridin-9-ylamino)-propyl]-piperazin-1-yl}-propyl)-amine]	–	61(±3) %	19(±5) %	4(±2) %	reduction of PrP^Sc concentration in ScN2a cells, in words ([2]; 10 nM to 200 nM, seven days): dose-dependent manner; bioactivity when incubated with the lysosomotropic agent chloroquine ([2]; cultures of ScN2a cells, results not shown): not compromised
CCN(CC)CCCC(C)Nc1cc(OC)cc2cccnc12 (centres unmarked)	did not inhibit PrP^Sc at the same potency as quinacrine	–	–	–	–
CCCN(CCCCNc1c2ccc(Cl)cc2nc2ccc(OC)cc12)CCCNc1c2ccc(Cl)cc2nc2ccc(OC)cc12 [Compound 15, N-(6-Chloro-2-methoxy-acridin-9-yl)-N′-[3-(6-chloro-2-methoxy-acridin-9-ylamino)-propyl]-N′-propyl-butane-1,4-diamine]	–	88(±2) %	41(±6) %	11(±1) %	–
COc1ccc2nc3cc(Cl)ccc3c(NCCCCN(CCCNc3c4ccc(Cl)cc4nc4ccc(OC)cc34)C(=O)C(C)NC(=O)OC(C)(C)C)c2c1 (centres unmarked) [Compound 17, (1-{[4-(6-chloro-2-methoxy-acridin-9-ylamino)-butyl]-[3-(6-chloro-2-methoxy-acridin-9-ylamino)-propyl]-carbamoyl}-ethyl)-carbamic acid tert-butyl ester]	–	84(±10) %	36(±1) %	7(±1) %	–
COc1ccc2nc3cc(Cl)ccc3c(NCCCCCCCCNc3c4ccc(Cl)cc4nc4ccc(OC)nc34)c2n1 [Compound 21, N,N′-Bis-(7-chloro-2-methoxy-benzo[b][1,5]naphthyridin-10-yl)-octane-1,8-diamine]	–	100(±6) %	88(±8) %	77(±3) %	activity against PrP^Sc relative to a comparator, in words ([3]; ScN2a screen, Table 2): reduced bioactivity
COc1ccc2nc3cc(Cl)ccc3c(NCCOCCOCCNc3c4ccc(Cl)cc4nc4ccc(OC)cc34)c2c1 [Compound 13, N,N′-Bis-(6-chloro-2-methoxy-acridin-9-yl)-1,8-diamino-3,6-dioxaoctane]	–	41(±8) %	29(±8) %	15(±7) %	–
CN(C)c1ccc2nc3ccc(=[N+](C)C)cc-3sc2c1	did not exhibit any anti-PrP^Sc effects	–	–	–	–
(+)-quinacrine	–	–	–	–	activity compared to the (L) optical isomer [4]: substantially greater activity
CCN(CC)CCCC(C)Nc1ccnc2cc(Cl)ccc12 (centres unmarked)	did not inhibit PrP^Sc at the same potency as quinacrine	–	–	–	–

Reference: patent publication US20040229898A1, “Cyclic bis-compounds clearing malformed proteins” (priority 2001, published 2004)
